Record: PubChem BioAssay AID624099 (ICCB-Longwood, 2012)
Test: 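Human genes that papillomavirus E2 requires to repress the HPV18 LCR promoter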 (primary screen). Cells: human C33A cervical carcinoma cells (HPV-negative) stably expressing BPV1 E2 and an HPV18 LCR luciferase reporter. Reagents: siRNA pool against human genes, 40 nM. Duration: 72 h. Measured: 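Per-well luciferase luminescence, z-scored on each plate against the plate mean and SD with control wells left out, then averaged across three replicate plates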. Scale: mean z-score and z-score: higher = stronger reporter signal, weaker E2 silencing. Hit rule: 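Mean z ≥ 2 together with z ≥ 2 in two or more of the three replicates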.
Here is one part, drawn at random, of about 21,000 reagents tested. 497 of them (2.4%) count as active. 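Higher z means weaker E2 silencing; only reporter increases were scored, and knock-downs that hurt cell survival may mask genuine repressor factors.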 The numbers tell different reagents against one gene apart.

What is on record for LOC388421 (retired record)?
mean z-score: -0.99; z-score, replicate A: -0.89; z-score, replicate B: -1.13; z-score, replicate C: -0.96; activity call: inactive

For UTP6 (UTP6 small subunit processome component), what does the deposit list?
mean z-score: -2.05; z-score, replicate A: -2.46; z-score, replicate B: -2.16; z-score, replicate C: -1.55; activity call: inactive

What is on record for AIM2 (absent in melanoma 2)?
mean z-score: 0.5; z-score, replicate A: 0.46; z-score, replicate B: 0.54; z-score, replicate C: 0.5; activity call: inactive

For ADAMTS12 (ADAM metallopeptidase with thrombospondin type 1 motif 12), what was measured?
mean z-score: -0.78; z-score, replicate A: -0.97; z-score, replicate B: -0.75; z-score, replicate C: -0.63; activity call: inactive

Which result is listed for STK33 (serine/threonine kinase 33)?
mean z-score: -0.76; z-score, replicate A: -0.45; z-score, replicate B: -1.1; z-score, replicate C: -0.73; activity call: inactive

Which result is listed for AMIGO3 (adhesion molecule with Ig like domain 3)?
mean z-score: 0.48; z-score, replicate A: 0.77; z-score, replicate B: 0.02; z-score, replicate C: 0.65; activity call: inactive

With RFLNA (refilin A), what does the deposit list?
mean z-score: 0.4; z-score, replicate A: 0.45; z-score, replicate B: 0.35; z-score, replicate C: 0.39; activity call: inactive

An excerpt from above, showing only “z-score, replicate A”.
STK33 (serine/threonine kinase 33) = -0.45
AMIGO3 (adhesion molecule with Ig like domain 3) = 0.77

Further reagents:
What is on record for LOC285563 (retired record) #1?
mean z-score: 0.16; z-score, replicate A: 0.18; z-score, replicate B: -0.15; z-score, replicate C: 0.45; activity call: inactive

How did the screen score LOC285563 (retired record) #2?
mean z-score: 0.44; z-score, replicate A: 0.31; z-score, replicate B: 0.63; z-score, replicate C: 0.39; activity call: inactive

For LOC285563 (retired record) #3, what does the deposit list?
mean z-score: 0.21; z-score, replicate A: 0.06; z-score, replicate B: 0.21; z-score, replicate C: 0.37; activity call: inactive

What did the screen give for LOC285563 (retired record) #4?
mean z-score: -0.07; z-score, replicate A: 0.15; z-score, replicate B: -0.77; z-score, replicate C: 0.39; activity call: inactive

What did the screen give for LOC285563 (retired record) #5?
mean z-score: 0.36; z-score, replicate A: 0.2; z-score, replicate B: 0.28; z-score, replicate C: 0.58; activity call: inactive

With AGPAT2 (1-acylglycerol-3-phosphate O-acyltransferase 2), what was measured?
mean z-score: -1.01; z-score, replicate A: -1.04; z-score, replicate B: -0.94; z-score, replicate C: -1.07; activity call: inactive

For PPIAP19 (peptidylprolyl isomerase A pseudogene 19), how do the results read?
mean z-score: -1.86; z-score, replicate A: -2.23; z-score, replicate B: -1.73; z-score, replicate C: -1.62; activity call: inactive

With LOC200624 (retired record), what was measured?
mean z-score: 0.67; z-score, replicate A: 0.55; z-score, replicate B: 0.64; z-score, replicate C: 0.81; activity call: inactive

For LINC00298 (long intergenic non-protein coding RNA 298), what does the deposit list?
mean z-score: -0.81; z-score, replicate A: -1.02; z-score, replicate B: -0.87; z-score, replicate C: -0.53; activity call: inactive

With TPRA1 (transmembrane protein adipocyte associated 1), what was measured?
mean z-score: -0.09; z-score, replicate A: -0.14; z-score, replicate B: 0.28; z-score, replicate C: -0.41; activity call: inactive

How did the screen score CEACAM7 (CEA cell adhesion molecule 7)?
mean z-score: -0.47; z-score, replicate A: -0.5; z-score, replicate B: -0.44; z-score, replicate C: -0.46; activity call: inactive

How did the screen score PDK4 (pyruvate dehydrogenase kinase 4) #1?
mean z-score: 0.02; z-score, replicate A: -0.39; z-score, replicate B: -0.09; z-score, replicate C: 0.53; activity call: inactive

For PDK4 (pyruvate dehydrogenase kinase 4) #2, what does the deposit list?
mean z-score: 0.93; z-score, replicate A: 0.33; z-score, replicate B: 1.87; z-score, replicate C: 0.58; activity call: inactive

For LOC155060 (AI894139 pseudogene), what does the deposit list?
mean z-score: 0.38; z-score, replicate A: 0.57; z-score, replicate B: 0.23; z-score, replicate C: 0.35; activity call: inactive
